Laboratory results: patent US20240109955A1 (published 2024)

Columns and labels:
Test in all cases: cell-based or functional assay
[1] = target: SARS-CoV-2 spike protein, Omicron variant BA.4/5 (SARS-CoV-2)
[2] = target: SARS-CoV-2 spike protein, Omicron variant BQ.1 (SARS-CoV-2)
[3] = target: SARS-CoV-2 spike protein, Omicron variant XBB (SARS-CoV-2)
[4] = target: SARS-CoV-2 spike protein, Omicron variant BQ.1.1 (SARS-CoV-2)
[5] = target: SARS-CoV-2 spike protein, Omicron variant BA.2.75.2 (SARS-CoV-2)
[6] = target: SARS-CoV-2 spike protein, Delta variant (SARS-CoV-2)
[7] = target: SARS-CoV-2 spike (S) protein, Omicron sublineage BA.4.7 (R346S, F486V) (SARS-CoV-2, UniProt P0DTC2 14-1273)
[8] = target: SARS-CoV-2 spike (S) protein, Omicron sublineage BF.7 (R346T, F486V) (SARS-CoV-2, UniProt P0DTC2 14-1273)
[9] = target: SARS-CoV-2 spike (S) protein, Omicron sublineage BQ 1.1 (R346T, K444T, F486V) (SARS-CoV-2, UniProt P0DTC2 14-1273)
[10] = target: SARS-CoV-2 spike (S) protein, Omicron sublineage BA.4.6 (R346T, F486V) (SARS-CoV-2, UniProt P0DTC2 14-1273)

B1: E8 (antibody, V domains shown)
VH: QVTLRESGPALVKPTQTLTLTCTFSGFSLSTRGVCVSWIRQPPGKALEWLAFIDWDDDKYYNTSLKTRLTISKDTSKNQVVLTMTNVHPVDTATYYCARISSHHGSSWCTTFDYWGQGALVTVSA
VL: DTVMTQSPLSLPVTPGEPASISCRSSQSLLNSNGYNYLDWYVQKPGQSPQLLIYLGSNRASGVPDRFSGSGSGTDFTLKISRVEAEDVGVYYCMQPLQTPLFTFGPGTKVEIK
IC50, pseudovirus neutralization [1]: 0.00013 µg/mL
IC80, pseudovirus neutralization [1]: 0.00049 µg/mL
IC50, pseudovirus neutralization [2]: 0.124 µg/mL
IC80, pseudovirus neutralization [2]: 5.19 µg/mL
IC50, pseudovirus neutralization [3]: 0.0615 µg/mL
IC80, pseudovirus neutralization [3]: 0.705 µg/mL
IC50, pseudovirus neutralization [4]: 0.496 µg/mL
IC80, pseudovirus neutralization [4]: 1.8 µg/mL
IC50, pseudovirus neutralization [5]: 0.00172 µg/mL
IC80, pseudovirus neutralization [5]: 0.0059 µg/mL

B2: E8 (antibody, V domains shown)
VH: QVTLRESGPALVKPTQTLTLTCTFSGFSLSTRGVCVSWIRQPPGKALEWLAFIDWDDDKYYNTSLKTRLTISKDTSKNQVVLTMTNVHPVDTATYYCARISSHHGSSWCTTFDYWGQGALVTVSA
VL: DTVMTQSPLSLPVTPGEPASISCRSSQSLLNSNGYNYLDWYVQKPGQSPQLLIYLGSNRASGVPDRFSGSGSGTDFTLKISRVEAEDVGVYYCMQPLQTPLFTFGPGTKVEIK
IC50, pseudovirus neutralization [6]: 0.00681 µg/mL
IC80, pseudovirus neutralization [6]: 0.0333 µg/mL

B3: MX828 + MX829 (other)
chain 1: QTVVTQEPSFSVSPGGTVTLTCGLSSGSVSTAYFPSWYQQTPGQAPRTLIYGTNTRSSGVPDRFSGSILGNKAALTITGAQADDESDYYCVLYMGRGIVVFGGGTKLTVLGGSSGEIVLTQSPGTLSLSPGERATLSCRASQSVSSSYLAWYQQKPGQAPRLLIYSASSRATGIPDRFSGSGSGTDFTLTISRLEPEDFAVYFCQQYVGLTGWTFGQGTKVEIKGGGGSGGSGSGGGGSASGSGQMQLVQSGPEVKKPGTSVKVSCKASGFTFTSSAVQWVRQRQRLEWIGWIVVGSGNTNYAQKFQERVTITRDMSTSTAYMELSSLRSEDTAVYYCAAPNCSNVVCYDGFDIWGQGTMVTVSSGGSSGQVQLVESGGGVVQPGRSLRLSCAASGFTLSSYGMHWVRQAPGKGLEWVAVISYDGSNKYYVDSVKGRFTISRDNSKNTLYLQMNSLRAEDTAVYYCRWAYWELLPDYYYGMDVWGQGTTVTVSSASGGSGDKTHTCPPCPAPELLGGPSVFLFPPKPKDTLMISRTPEVTCVVVDVSHEDPEVKFNWYVDGVEVHNAKTKPREEQYNSYVVSVLTVLHQDWLNGKEYKCKVSNKALPAPIEKTISKAKGQPREPQVYTLPPSRDELTKNQVSLTCLVKGFYPSDIAVEWESNGQPENNYKTTPPVLDSDGSFFKKLTVDKSRWQQGNVFSCSVLHEALHSHYTQKSLSLSPG
chain 2: DIQMTQSPSSVSASVGDRVIITCRASQGISSWLAWYQQKPGKAPKVLIYDASSLQSGVPSRFSGSGYGTDFTLTISSLQPEDSATYYCQQAKSFPITFGQGTRLEIKGGSSGEIVLTQSPGTLSLSPGERATLSCRASQSVSSSYLAWYQQKPGQAPRLLIYSASSRATGIPDRFSGSGSGTDFTLTISRLEPEDFAVYFCQQYVGLTGWTFGQGTKVEIKGGGGSGGSGSGGGGSASGSGQMQLVQSGPEVKKPGTSVKVSCKASGFTFTSSAVQWVRQRQRLEWIGWIVVGSGNTNYAQKFQERVTITRDMSTSTAYMELSSLRSEDTAVYYCAAPNCSNVVCYDGFDIWGQGTMVTVSSGGSSGQVQLVESGGGVVQPGRSLRLSCAASGFTFSSYAFHWVRQAPGKGLEWVAVISYDGSNQYYADSVKGRFTISRDNSKNTLYLQMNSLRADDTAVYYCARDLAIAVAGTWHYYNGMDVWGQGTTVTVSSASGGSGDKTHTCPPCPAPELLGGPSVFLFPPKPKDTLMISRTPEVTCVVVDVSHEDPEVKFNWYVDGVEVHNAKTKPREEQYNSYVVSVLTVLHQDWLNGKEYKCKVSNKALPAPIEKTISKAKGQPREPQVYTLPPSRDELTKNQVSLTCLVKGFYPSDIAVEWESNGQPENNYKTTPPVLDSDGSFFKKLTVDKSRWQQGNVFSCSVLHEALHSHYTQKSLSLSPG
IC50, pseudovirus neutralization [7]: 10 nM
IC80, pseudovirus neutralization [7]: 31.1 nM
IC50, pseudovirus neutralization [8]: 5.26 nM
IC80, pseudovirus neutralization [8]: 22.4 nM
IC50, pseudovirus neutralization [9]: 538 nM
IC80, pseudovirus neutralization [9]: 1970 nM
IC50, pseudovirus neutralization [10]: 15 nM
IC80, pseudovirus neutralization [10]: 40.4 nM

B4: MX830 + MX831 (other)
chain 1: QTVVTQEPSFSVSPGGTVTLTCGLSSGSVSTAYFPSWYQQTPGQAPRTLIYGTNTRSSGVPDRFSGSILGNKAALTITGAQADDESDYYCVLYMGRGIVVFGGGTKLTVLGGSSGEIVLTQSPGTLSLSPGERATLSCRASQSVSSSYLAWYQQKPGQAPRLLIYSASSRATGIPDRFSGSGSGTDFTLTISRLEPEDFAVYFCQQYGGLTGWTFGQGTKVEIKGGGGSGGSGSGGGGSASGSGQMQLVQSGPEVKKPGTSVKVSCKASGFTFTSSAVQWVRQRQRLEWIGWIVVGSGNTNYAQKFQERVTITRDMSTSTAYMELSSLRSEDTAVYYCAAPNCSNVVCYDGFDIWGQGTMVTVSSGGSSGQVQLVESGGGVVQPGRSLRLSCAASGFTLSSYGMHWVRQAPGKGLEWVAVISYDGSNKYYVDSVKGRFTISRDNSKNTLYLQMNSLRAEDTAVYYCRWAYWELLPDYYYGMDVWGQGTTVTVSSASGGSGDKTHTCPPCPAPELLGGPSVFLFPPKPKDTLMISRTPEVTCVVVDVSHEDPEVKFNWYVDGVEVHNAKTKPREEQYNSYVVSVLTVLHQDWLNGKEYKCKVSNKALPAPIEKTISKAKGQPREPQVYTLPPSRDELTKNQVSLTCLVKGFYPSDIAVEWESNGQPENNYKTTPPVLDSDGSFFKKLTVDKSRWQQGNVFSCSVLHEALHSHYTQKSLSLSPG
chain 2: DIQMTQSPSSVSASVGDRVIITCRASQGISSWLAWYQQKPGKAPKVLIYDASSLQSGVPSRFSGSGYGTDFTLTISSLQPEDSATYYCQQAKSFPITFGQGTRLEIKGGSSGEIVLTQSPGTLSLSPGERATLSCRASQSVSSSYLAWYQQKPGQAPRLLIYSASSRATGIPDRFSGSGSGTDFTLTISRLEPEDFAVYFCQQYGGLTGWTFGQGTKVEIKGGGGSGGSGSGGGGSASGSGQMQLVQSGPEVKKPGTSVKVSCKASGFTFTSSAVQWVRQRQRLEWIGWIVVGSGNTNYAQKFQERVTITRDMSTSTAYMELSSLRSEDTAVYYCAAPNCSNVVCYDGFDIWGQGTMVTVSSGGSSGQVQLVESGGGVVQPGRSLRLSCAASGFTFSSYAFHWVRQAPGKGLEWVAVISYDGSNQYYADSVKGRFTISRDNSKNTLYLQMNSLRADDTAVYYCARDLAIAVAGTWHYYNGMDVWGQGTTVTVSSASGGSGDKTHTCPPCPAPELLGGPSVFLFPPKPKDTLMISRTPEVTCVVVDVSHEDPEVKFNWYVDGVEVHNAKTKPREEQYNSYVVSVLTVLHQDWLNGKEYKCKVSNKALPAPIEKTISKAKGQPREPQVYTLPPSRDELTKNQVSLTCLVKGFYPSDIAVEWESNGQPENNYKTTPPVLDSDGSFFKKLTVDKSRWQQGNVFSCSVLHEALHSHYTQKSLSLSPG
IC50, pseudovirus neutralization [7]: 8.45 nM
IC80, pseudovirus neutralization [7]: 30.6 nM
IC50, pseudovirus neutralization [8]: 3.91 nM
IC80, pseudovirus neutralization [8]: 24.8 nM
IC50, pseudovirus neutralization [9]: 422 nM
IC80, pseudovirus neutralization [9]: 3820 nM
IC50, pseudovirus neutralization [10]: 21.5 nM
IC80, pseudovirus neutralization [10]: 45.4 nM

B5: B8 (antibody, V domains shown)
VH: EVQLVESGGALIQPGGSLRLSCAASGIIVSANYMSWVRQAPGKGLEWVSVIYSGGSTFYADSVKGRFTISRDNSKNTLYLEMNSLRAEDTAVYYCARDAPILGVSDWGQGTLVTVSS
VL: EIVMTQSPAILSVSPGERATLSCRASQSVAINLAWYQQKPGQAPRLLIYAASSRATGIPGRFSGSGSETNFTLTISSLQSGDFAVYYCQQYITWPPSYTFGQGTKLEIK
IC50, pseudovirus neutralization [6]: 0.0133 µg/mL
IC80, pseudovirus neutralization [6]: 0.199 µg/mL

B6: E12 (antibody, V domains shown)
VH: EVQLVESGGGLIQPGGSLRLSCAASGVIVSYNYMNWVRQAPGKGLEWVSVIYSGGSTFYADSVRGRFTISRDNSKNTLYLQMNSLRAEDTAVYYCARDLGPAGAFDIWGLGTMVTVSS
VL: EIVLTQSPGTLSLSPGETATLSCRASQSFSSDLAWYQQKPGQAPRLLIYGASSRATGIPDRFSGSGSGTDFTLTISRLEPADFAVYYCQQYGSSPPVTFGGGTKVEIK
IC50, pseudovirus neutralization [1]: 0.00462 µg/mL
IC80, pseudovirus neutralization [1]: 0.00921 µg/mL
IC50, pseudovirus neutralization [2]: 0.0119 µg/mL
IC80, pseudovirus neutralization [2]: 0.0409 µg/mL
IC50, pseudovirus neutralization [3]: 0.0126 µg/mL
IC80, pseudovirus neutralization [3]: 0.0311 µg/mL
IC50, pseudovirus neutralization [4]: 0.00529 µg/mL
IC80, pseudovirus neutralization [4]: 0.0174 µg/mL
IC50, pseudovirus neutralization [5]: 0.00699 µg/mL
IC80, pseudovirus neutralization [5]: 0.0401 µg/mL

B7: E12 (antibody, V domains shown)
VH: EVQLVESGGGLIQPGGSLRLSCAASGVIVSYNYMNWVRQAPGKGLEWVSVIYSGGSTFYADSVRGRFTISRDNSKNTLYLQMNSLRAEDTAVYYCARDLGPAGAFDIWGLGTMVTVSS
VL: EIVLTQSPGTLSLSPGETATLSCRASQSFSSDLAWYQQKPGQAPRLLIYGASSRATGIPDRFSGSGSGTDFTLTISRLEPADFAVYYCQQYGSSPPVTFGGGTKVEIK
IC50, pseudovirus neutralization [6]: 0.0173 µg/mL
IC80, pseudovirus neutralization [6]: 0.0321 µg/mL
